Anti-infective test results gathered from many reports (values: NIAID ChemDB through PubChem).

Common to all: whole-cell or culture tests

ECn is the concentration giving n% inhibition of infection, replication or growth.

SMILES	organism	strain	changes	cells	read by	endpoint	dose	result
c1cc(-c2ccsc2)cs1	Mouse cytomegalovirus	-	-	3T3-L1	plaque count	EC50	-	>1 µg/mL
Nc1nc(=O)n([C@H]2C[C@H](O)[C@@H](CO)O2)cc1I	Cryptosporidium parvum	-	-	-	-	inhibition	100 µg/mL	92%
O=c1[nH]cnc2c1ncn2[C@H]1CC[C@@H](CO)O1	HIV-1	HXB2	RT-M41L T215Y	HT4 + HT4 LacZ-1	plaque count	EC50	-	1.6 µM
O=C(C#CC=CC#CC(=O)c1cccs1)c1cccs1	Mouse cytomegalovirus	-	-	3T3-L1	plaque count	EC50	-	>1 µg/mL
O=C(Nc1ncc([N+](=O)[O-])s1)c1ccccc1O	Vittaforma corneae	-	-	RK-13	-	inhibition	1 µg/mL	66.1%
O=c1[nH]c(=O)n([C@H]2C[C@H](O)[C@@H](CO)O2)cc1C(F)(F)F	Cryptosporidium parvum	-	-	-	-	inhibition	1 µg/mL	89%
Nc1ccn(C[C@@H](CO)OCP(=O)(O)O)c(=O)n1	Human herpesvirus 6	GS	-	HSB-2	cytopathic effect	EC50	-	14 µM
O=C(O)CP(=O)(O)O	Varicella zoster virus	PMEDAP-resistant	-	HEL	plaque count	EC50	-	16.6 µg/mL
O=c1[nH]c(=O)n([C@H]2C[C@H](O)[C@@H](CO)O2)cc1/C=C/Br	Cryptosporidium parvum	-	-	-	-	inhibition	10 µg/mL	12%
Nc1nc(=O)n2ccn([C@@H]3O[C@H](CO)[C@@H](O)[C@H]3O)c2n1	Banzi virus	H336	-	VERO	cytopathic effect	EC50	-	5 µg/mL
C(#Cc1ccc(C#Cc2cccs2)s1)c1cccs1	Mouse cytomegalovirus	-	-	3T3-L1	plaque count	EC50	-	0.016 µg/mL
O=[N+]([O-])c1c(Cl)cccc1-c1c[nH]cc1Cl	Herpes simplex virus 1	KOS	-	HeLa	cytopathic effect	EC50	-	>200 µg/mL
Cc1ccnc2c1NC(=O)c1cccnc1N2C1CC1	HIV-1	-	RT-M41L T215Y Y181C	MT-4	-	EC95	-	>3 µM
Nc1ncnc2c1ncn2C[C@H](CO)OCP(=O)(O)O	Adenovirus	WT 300 (TYPE 5)	-	-	cytopathic effect	EC50	-	7 µg/mL
CN[C@@H]1[C@H](O[C@H]2[C@H](O[C@H]3[C@H](O)[C@@H](O)[C@H](N=C(N)N)[C@@H](O)[C@@H]3N=C(N)N)O[C@@H](C)[C@]2(O)C=O)O[C@@H](CO)[C@H](O)[C@H]1O	Klebsiella pneumoniae	ESBL-3971	-	-	-	MIC	-	6.25 µg/mL
c1cc(-c2csc(-c3ccsc3)c2)cs1	Mouse cytomegalovirus	-	-	3T3-L1	plaque count	EC50	-	>1 µg/mL
CO[C@H]1[C@@H](OC(=O)/C=C/C=C/C=C/C=C/C(=O)O)CC[C@@]2(CO2)[C@@H]1[C@@]1(C)O[C@@H]1CC=C(C)C	Encephalitozoon intestinalis	-	-	RK-13	-	inhibition	0.00001 µg/mL	33.2%
Nc1nc2c(ncn2COC(CO)CO)c(=O)[nH]1	Human herpesvirus 6	GS	-	HSB-2	antigen / flow cytometry	EC50	-	>25 µM
C#CC[C@@H](C(=O)N[C@H](/C=C/C(=O)OCC)C[C@@H]1CCNC1=O)n1cccc(NC(=O)c2cc(C)on2)c1=O	Rhinovirus	Serotype 49	-	H1-HELA	cytopathic effect / XTT	inhibition	0.057 µM	90%
Cc1c(CN(C)c2cccc3c2CCCC3)cnc2nc(N)nc(N)c12	Encephalitozoon intestinalis	-	-	RK-13	-	inhibition	1 µg/mL	75.7%
O=C(O)P(=O)(O)O	Human herpesvirus 6	GS	-	HSB-2	antigen / flow cytometry	EC50	-	5.8 µM
C1CCN2C[C@H]3C[C@H](CN4CCCC[C@@H]34)[C@H]2C1	Herpes simplex virus 1	KOS	-	HeLa	cytopathic effect	EC50	-	>200 µg/mL
Nc1ncnc2c1ncn2CCOCP(=O)(O)O	Varicella zoster virus	Oka CF1603-resistant	-	HEL	cytopathic effect	EC50	-	21.7 µM
CN1C(=O)C23CC4(C56CC78SSC(CO)(C(=O)N7C5Nc5ccccc56)N(C)C8=O)c5ccccc5NC4N2C(=O)C1(CO)SS3	Herpes simplex virus 1	KOS	-	HeLa	cytopathic effect	EC50	-	>200 µg/mL
Nc1nc2c(ncn2C[C@H]2COP(=O)(O)CO2)c(=O)[nH]1	Human herpesvirus 6	GS	-	HSB-2	antigen / flow cytometry	EC50	-	10 µM
Nc1ccn([C@@H]2O[C@H](C(O[C@@H]3O[C@H](CO)[C@@H](O)[C@H](N)[C@H]3O)[C@@H](O)[C@@H](O)[C@@H](O)[C@@H](O)CO)[C@@H](N)[C@H](O)[C@H]2O)c(=O)n1	Herpes simplex virus 1	KOS	-	HeLa	cytopathic effect	EC50	-	>200 µg/mL
CCOC(=O)Nc1cc(NC(C)/C(=N/O)c2ccc(O)cc2)c([N+](=O)[O-])c(N)n1	Encephalitozoon intestinalis	-	-	RK-13	-	inhibition	0.01 µg/mL	7.3%
CC(C)(C)OC(=O)N[C@@H]1CCCCC/C=C\[C@@H]2C[C@@]2(C(=O)NS(=O)(=O)C2CC2)NC(=O)[C@@H]2C[C@@H](OC(=O)N3Cc4cccc(F)c4C3)CN2C1=O	Hepatitis C virus	452	-	Huh7.5	antigen	EC50	-	2.671 µM
COc1ccc(C(F)(F)F)cc1NCc1cnc2nc(N)nc(N)c2c1C	Encephalitozoon intestinalis	-	-	RK-13	-	inhibition	1 µg/mL	78%
NC[C@@H]1O[C@H](O[C@H]2[C@@H](O)[C@H](O[C@@H]3[C@@H](O)[C@H](N)C[C@H](N)[C@H]3O[C@H]3O[C@H](CO)[C@@H](O)[C@H](O)[C@H]3N)O[C@@H]2CO)[C@H](N)[C@@H](O)[C@@H]1O	Cryptosporidium parvum	-	-	-	-	inhibition	50 µg/mL	37%
CO[C@H]1[C@@H](OC(=O)/C=C/C=C/C=C/C=C/C(=O)O)CC[C@@]2(CO2)[C@@H]1[C@@]1(C)O[C@@H]1CC=C(C)C	Herpes simplex virus 1	KOS	-	HeLa	cytopathic effect	EC50	-	>200 µg/mL
CC(=O)Oc1ccccc1C(=O)Nc1ncc([N+](=O)[O-])s1	Encephalitozoon intestinalis	-	-	RK-13	-	inhibition	10 µg/mL	83.1%
CC(C)[C@H](NC(=O)[C@H](CCCN=C(N)N)NC(=O)N[C@@H](Cc1ccccc1)C(=O)O)C(=O)N[C@H](C=O)CCCN=C(N)N	Cryptosporidium parvum	-	-	-	-	inhibition	50 µg/mL	57.87%
OCCC#Cc1ccc(-c2ccc(C#CCCO)s2)s1	Mouse cytomegalovirus	-	-	3T3-L1	plaque count	EC50	-	0.047 µg/mL
O=C(O)P(=O)(O)O	Varicella zoster virus	ACV-resistant	-	HEL	plaque count	EC50	-	10.8 µg/mL
CC(=O)NC[C@H]1CN(c2ccc(N3CCOCC3)c(F)c2)C(=O)O1	Streptococcus pneumoniae	Penicillin-resistant	-	-	-	MIC50	-	0.5–1 µg/mL
Nc1nc2c(ncn2COC(CO)CO)c(=O)[nH]1	Varicella zoster virus	PMEA-resistant	-	HEL	plaque count	EC50	-	0.36 µg/mL
COc1cc(Cc2cnc(N)nc2N)cc(OC)c1OC	Mycobacterium ulcerans	Isolate 94-539	-	-	-	MBC	-	>32 µg/mL
CCCSc1ccc2nc(NC(=O)OC)[nH]c2c1	Vittaforma corneae	-	-	RK-13	-	inhibition	0.01 µg/mL	14%
NC(=O)c1ncn([C@@H]2O[C@H](CO)[C@@H](O)[C@H]2O)n1	Respiratory syncytial virus	LONG	-	HEP-2	plaque count	inhibition	1 µg/mL	30%
NC(=O)c1ncn([C@@H]2O[C@H](CO)[C@@H](O)[C@H]2O)n1	Respiratory syncytial virus	LONG	-	HEP-2	ELISA	EC50	-	10.5 µM
c1cc(-c2ccsc2-c2ccsc2)cs1	Mouse cytomegalovirus	-	-	3T3-L1	plaque count	EC50	-	0.375 µg/mL
Nc1nc2c(ncn2CCOCP(=O)(O)O)c(=O)[nH]1	Measles virus	Chicago	-	-	neutral red	EC50	-	<0.03 µg/mL
Nc1nc(N)c2ncn(CCOCP(=O)(O)O)c2n1	Varicella zoster virus	BVaraU-resistant	-	HEL	plaque count	EC50	-	0.93 µg/mL
Nc1ccn(C[C@@H](CO)OCP(=O)(O)O)c(=O)n1	Adenovirus	TRIM (TYPE 8)	-	-	virus yield	EC90	-	2 µg/mL
C=CC(C)(C)C1=Cc2cc3c(cc2OC1=C)OC(C(C)(C)OC(C)=O)C3	Epstein-Barr virus	-	-	Akata-Bx1	PCR	EC50	-	2.94 µM
COc1cc(Cc2cnc(N)nc2N)cc(OC)c1OCCCNc1ccc(S(=O)(=O)c2ccc(N)cc2)cc1	Mycobacterium ulcerans	ATCC 19423	-	-	-	MBC	-	4 µg/mL
Nc1nc2c(ncn2C[C@@H](CO)OCP(=O)(O)O)c(=O)[nH]1	Human herpesvirus 6	GS	-	HSB-2	cytopathic effect	EC50	-	4.9 µM
CC#Cc1ccc(-c2ccc(C(=O)O)s2)s1	Mouse cytomegalovirus	-	-	3T3-L1	plaque count	EC50	-	0.055 µg/mL
O=c1[nH]c(=O)n([C@H]2C[C@H](O)[C@@H](CO)O2)cc1I	Cryptosporidium parvum	-	-	-	-	inhibition	5 µg/mL	82%
c1coc(-c2ccc(-c3ccco3)s2)c1	Mouse cytomegalovirus	-	-	3T3-L1	plaque count	EC50	-	1 µg/mL
CO[C@@H]1[C@@H](O[C@@H]2O[C@H](C)[C@@H](O[C@H]3C[C@@](C)(O)[C@@H](O)[C@H](C)O3)[C@H](N(C)C)[C@H]2O)[C@@H](CC=O)C[C@@H](C)[C@@H](O[C@H]2CC[C@H](N(C)C)[C@H](C)O2)/C=C/C=C/C[C@@H](C)OC(=O)C[C@H]1O	Toxoplasma gondii	-	-	-	-	inhibition	1 µg/mL	40%
COc1ccc2c(O[C@@H]3C[C@H]4C(=O)N[C@]5(C(=O)NS(=O)(=O)C6CC6)C[C@H]5/C=C\CCCCN(C)C(=O)[C@@H]4C3)cc(-c3nc(C(C)C)cs3)nc2c1C	Hepatitis C virus	J6	-	Huh7.5	antigen	EC50	-	0.249 µM

Repeating the final 6 entries:

SMILES | organism | strain | changes | cells | read by | endpoint | dose | result
Nc1nc2c(ncn2C[C@@H](CO)OCP(=O)(O)O)c(=O)[nH]1 | Human herpesvirus 6 | GS | - | HSB-2 | cytopathic effect | EC50 | - | 4.9 µM
CC#Cc1ccc(-c2ccc(C(=O)O)s2)s1 | Mouse cytomegalovirus | - | - | 3T3-L1 | plaque count | EC50 | - | 0.055 µg/mL
O=c1[nH]c(=O)n([C@H]2C[C@H](O)[C@@H](CO)O2)cc1I | Cryptosporidium parvum | - | - | - | - | inhibition | 5 µg/mL | 82%
c1coc(-c2ccc(-c3ccco3)s2)c1 | Mouse cytomegalovirus | - | - | 3T3-L1 | plaque count | EC50 | - | 1 µg/mL
CO[C@@H]1[C@@H](O[C@@H]2O[C@H](C)[C@@H](O[C@H]3C[C@@](C)(O)[C@@H](O)[C@H](C)O3)[C@H](N(C)C)[C@H]2O)[C@@H](CC=O)C[C@@H](C)[C@@H](O[C@H]2CC[C@H](N(C)C)[C@H](C)O2)/C=C/C=C/C[C@@H](C)OC(=O)C[C@H]1O | Toxoplasma gondii | - | - | - | - | inhibition | 1 µg/mL | 40%
COc1ccc2c(O[C@@H]3C[C@H]4C(=O)N[C@]5(C(=O)NS(=O)(=O)C6CC6)C[C@H]5/C=C\CCCCN(C)C(=O)[C@@H]4C3)cc(-c3nc(C(C)C)cs3)nc2c1C | Hepatitis C virus | J6 | - | Huh7.5 | antigen | EC50 | - | 0.249 µM

Blank or dashed fields: not listed here. MIC50, MIC90 and the like: level of inhibition, or share of isolates inhibited. Conditions beyond the fields shown may differ between rows. Inhibition is in % at the dose shown (toxicity tests: loss of growth or viability). Two numbers with a dash give a range or band.